Compound potency records, mixed from different reports. Data source: NIAID ChemDB in PubChem.

All rows: target-level tests

Percent inhibition refers to the dose given; in toxicity tests it is the harm to the cells. ICn: concentration for n% inhibition. Blank or dashed fields: not listed here. a–b is a range or a potency band. Neighbouring rows are from separate reports.

structure,read by,strain or isolate,tested at,protein,measure,species,value
CC(=O)N[C@@H](CC(=O)O)C(=O)N[C@H](C(=O)CCC(=O)O)C(=O)N[C@H](C(=O)N[C@@H](CCC(=O)O)C(=O)N[C@@H](CC1CCCCC1)C(=O)N[C@@H](CS)C(=O)C(=O)O)C(c1ccccc1)c1ccccc1,-,-,-,NS3/NS4A serine protease,Ki,Hepatitis C virus,0.87 µM
CC[C@@H](C=O)NC(=O)[C@@H]1C[C@@H](OCc2ccccc2)CN1C(=O)[C@@H](NC(=O)c1ccc[nH]1)C(C)C,-,-,-,NS3 protease,Ki,Hepatitis C virus,1–100 µM
C=CC1CC1(NC(=O)[C@@H]1C[C@@H](OC(=O)Nc2ccccc2)CN1C(=O)[C@@H](NC(=O)OC(C)(C)C)C(C)(C)C)C(=O)O,-,BMS/H77C/J416S,-,NS3/NS4A protease,IC50,Hepatitis C virus,>10 µM
CC[C@@H]1C[C@]1(NC(=O)[C@@H]1C[C@@H](Oc2cc(-c3csc(NC(C)C)n3)nc3c(Cl)c(OCCN4CCOCC4)ccc23)CN1C(=O)[C@@H](NC(=O)OC1C[C@@H]2C[C@@H]2C1)C(C)(C)C)C(=O)O,fluorescence,JFH-1 (gt 2a),-,Nonstructural protein 3 protease,Ki,Hepatitis C virus,0.039 µM
O=C(O)CC1(CC(=O)Nc2ccsc2-c2nc(C(=O)O)c(O)c(=O)[nH]2)CCCC1,-,-,-,HCV polymerase,IC50,Hepatitis C virus,<25 µM
COc1nc(Nc2ccc3[nH]ncc3c2)nc(N2CCCC2)n1,-,-,-,DNA polymerase,IC50,Hepatitis B virus,0.1–1 µg/mL
COC(=O)c1cc2nc(-c3ccc(OC)cc3)cc(C(F)(F)F)n2n1,-,-,-,RNA-dependent RNA polymerase,IC50,Hepatitis C virus,>10 µM
C=CC1CC1(NC(=O)[C@@H]1C[C@@H](OC(=O)Nc2ccccc2CCC)CN1C(=O)[C@@H](NC(=O)OC(C)(C)C)C(C)(C)C)C(=O)NS(=O)(=O)C1CC1,-,BMS/H77C/J416S,-,NS3/NS4A protease,IC50,Hepatitis C virus,<0.1 µM
CC(=O)N[C@@H](CC(=O)O)C(=O)N[C@H](CC(C(=O)O)C(=O)O)C(=O)N[C@H](C(=O)N[C@@H](CCC(=O)O)C(=O)N[C@@H](CC1CCCCC1)C(=O)N[C@@H](CC(F)F)C(=O)C(=O)O)C(c1ccccc1)c1ccccc1,-,-,-,NS3/NS4A serine protease,Ki,Hepatitis C virus,0.00002 µM
Cc1ccc2nc(-c3ccc(N=NNc4ccc(-c5nc6ccc(C)c(S(=O)(=O)O)c6s5)cc4)cc3)sc2c1S(=O)(=O)O,ATP / substrate cleavage / absorbance,-,200 µM,NS3 helicase,inhibition,Hepatitis C virus,18%
O=C(NS(=O)(=O)c1ccccc1)c1cnn2c(C3CCCCC3)c(-c3ccc(OCc4ccccc4)cc3)cnc12,-,-,-,RNA-dependent RNA polymerase,IC50,Hepatitis C virus,<1 µM
O=C(NCc1nc2ccccc2s1)Nc1cscc1-c1nc(C(=O)O)c(O)c(=O)[nH]1,-,-,-,HCV polymerase,IC50,Hepatitis C virus,<25 µM
CC(C)c1ccc(/C=C2\Oc3cccc(O)c3C2=O)cc1,FRET,J4 genotype 1B,20 µM,HCV NS5B delta21,inhibition,Hepatitis C virus,30%
CC[C@@H](C=O)NC(=O)[C@@H]1C[C@@H](OCc2ccccc2)CN1C(=O)[C@@H](NS(=O)(=O)c1ccccc1)C(C)C,-,-,-,NS3 protease,Ki,Hepatitis C virus,>100 µM
O=C(O)c1nc(-c2ccsc2)[nH]c(=O)c1O,-,-,-,HCV polymerase,IC50,Hepatitis C virus,<25 µM
COc1nc(Nc2ccc3cn[nH]c3c2)nc(NN2CCN(C)CC2)n1,-,-,0.1 µg/mL,DNA polymerase,inhibition,Hepatitis B virus,12%
CC[C@H](NC(=O)[C@H](CC(C)C)NC(=O)[C@@H](NC(=O)[C@@H](NC(=O)c1cnccn1)C(C)C)C(C)C)C(=O)C(=O)OC,-,-,-,NS3 protease,Ki,Hepatitis C virus,>100 µM
C=CC1CC1(NC(=O)[C@@H]1C[C@@H](OC(=O)Nc2ccccc2C)CN1C(=O)[C@@H](NC(=O)OC(C)(C)C)C(C)(C)C)C(=O)O,-,BMS/H77C/J416S,-,NS3/NS4A protease,IC50,Hepatitis C virus,>10 µM
CC[C@@H](C=O)NC(=O)[C@@H]1C[C@@H](NC(=O)C(=O)c2ccccc2)CN1C(=O)[C@@H](NC(=O)[C@@H](NC(=O)c1cnccn1)C(C)C)C(C)C,-,-,-,NS3 protease,Ki,Hepatitis C virus,1–100 µM
COc1nc(Nc2ccc3[nH]ncc3c2)nc(NN2CCN(C)CC2)n1,-,-,0.01 µg/mL,DNA polymerase,inhibition,Hepatitis B virus,6%
CCCCc1ccc(/C=C2\Oc3cccc(O)c3C2=O)cc1,FRET,J4 genotype 1B,20 µM,HCV NS5B delta21,inhibition,Hepatitis C virus,42%
CC[C@H](NC(=O)[C@H](CC(C)C)NC(=O)[C@@H](NC(=O)[C@@H](NC(=O)c1cnccn1)C(C)C)C(C)C)C(=O)C(=O)NCCc1ccccc1,-,-,-,NS3 protease,Ki,Hepatitis C virus,1–100 µM
C=CC1CC1(NC(=O)[C@@H]1C[C@@H](OC(=O)Nc2ccccc2-n2nc3cc(OC)c(OC)cc3n2)CN1C(=O)[C@@H](NC(=O)OC(C)(C)C)C(C)(C)C)C(=O)NS(=O)(=O)C1CC1,-,BMS/H77C/J416S,-,NS3/NS4A protease,IC50,Hepatitis C virus,<0.1 µM
CC[C@@H](C=O)NC(=O)[C@@H]1C[C@@H](NC(=O)c2ccccc2)CN1C(=O)[C@@H](NC(=O)[C@@H](NC(=O)c1cnccn1)C(C)C)C(C)C,-,-,-,NS3 protease,Ki,Hepatitis C virus,1–100 µM
COc1nc(NCCCN2CCCC2=O)nc(Nc2ccc3cn[nH]c3c2)n1,-,-,-,DNA polymerase,IC50,Hepatitis B virus,>1 µg/mL
C=CC1C[C@@]1(NC(=O)[C@@H]1C[C@@H](Oc2cc(-c3ccccc3)nc3cc(OC)ccc23)CN1C(=O)[C@@H](NC(=O)Oc1ccc(C)cc1)C(C)(C)C)C(=O)NS(=O)(=O)C1(Cc2ccccc2)CC1,-,BMS,-,NS3/NS4A protease,IC50,Hepatitis C virus,0.05–0.5 µM
O=C(NCc1cccc(F)c1)Nc1cccc(-c2nc(C(=O)O)c(O)c(=O)[nH]2)c1,-,-,-,HCV polymerase,IC50,Hepatitis C virus,<100 µM
CCOC(=O)C1=CN(N2CCN(c3nc(Nc4ccc5cn[nH]c5c4)nc(OC)n3)CC2)C(SC)N=C1,-,-,0.1 µg/mL,Nonstructural protein 5B,inhibition,Hepatitis C virus,0%
CC(=O)N[C@@H](CC(=O)O)C(=O)N[C@@H](C(=O)N[C@H](C(=O)N[C@@H](CCC(=O)O)C(=O)N[C@@H](CC1CCCCC1)C(=O)N[C@@H](CS)C(=O)C(=O)O)C(c1ccccc1)c1ccccc1)C(C(=O)O)C(=O)O,-,-,-,NS3/NS4A serine protease,Ki,Hepatitis C virus,0.018 µM
O=C(O)CC(=O)Nc1cnn2c(C3CCCCC3)c(-c3ccc(OCc4ccccc4)cc3)cnc12,-,-,-,RNA-dependent RNA polymerase,IC50,Hepatitis C virus,1–10 µM
C=CC1CC1(NC(=O)[C@@H]1C[C@@H](OC(=O)Nc2c(CC)cccc2C(C)C)CN1C(=O)[C@@H](NC(=O)OC(C)(C)C)C(C)(C)C)C(=O)NS(=O)(=O)C1CC1,-,BMS/H77C/J416S,-,NS3/NS4A protease,IC50,Hepatitis C virus,1–10 µM
CC(NC(=O)Nc1cscc1-c1nc(C(=O)O)c(O)c(=O)[nH]1)c1ccc(OC(C)(C)C)cc1,-,-,-,HCV polymerase,IC50,Hepatitis C virus,<25 µM
C=CC1CC1(NC(=O)[C@@H]1C[C@@H](OC(=O)Nc2ccccc2N2CCCCC2)CN1C(=O)[C@@H](NC(=O)OC(C)(C)C)C(C)(C)C)C(=O)NS(=O)(=O)C1CC1,-,BMS/H77C/J416S,-,NS3/NS4A protease,IC50,Hepatitis C virus,<0.1 µM
CC(=O)N[C@@H](CC(=O)O)C(=O)N[C@H](CC(C(=O)O)C(=O)O)C(=O)N[C@H](C(=O)N[C@@H](CCC(=O)O)C(=O)N[C@@H](CC(=O)O)C(=O)N[C@@H](CS)C(=O)C(=O)O)C(c1ccccc1)c1ccccc1,-,-,-,NS3/NS4A serine protease,Ki,Hepatitis C virus,0.00005 µM
COc1nc(NCCc2c[nH]c3ccccc23)nc(Nc2ccc3[nH]ncc3c2)n1,-,-,-,DNA polymerase,IC50,Hepatitis B virus,>1 µg/mL
C=CC1CC1(NC(=O)[C@@H]1C[C@@H](OC(=O)NCc2cccc(CC)c2)CN1C(=O)[C@@H](NC(=O)OC(C)(C)C)C(C)(C)C)C(=O)NS(=O)(=O)C1CC1,-,BMS/H77C/J416S,-,NS3/NS4A protease,IC50,Hepatitis C virus,<0.1 µM
C=CC1CC1(NC(=O)[C@@H]1C[C@@H](Oc2cc(-c3ccccc3)nc3cc(OC)ccc23)CN1C(=O)[C@@H](NC(=O)OC(C)(C)C)C(C)(C)C)C(=O)NS(=O)(=O)C1(C(=O)Nc2ccccc2)CC1,-,BMS,-,NS3/NS4A protease,IC50,Hepatitis C virus,<0.05 µM
CC[C@@H](C=O)NC(=O)[C@@H]1C[C@@H](OCc2ccccc2)CN1C(=O)[C@@H](NC(=O)C1Cc2ccccc2CN1)C(C)C,-,-,-,NS3 protease,Ki,Hepatitis C virus,1–100 µM
C=CC1CC1(NC(=O)[C@@H]1C[C@@H](Oc2cc(-c3ccccc3)nc3cc(OC)ccc23)CN1C(=O)[C@@H](NC(=O)CC1CC1)C(C)(C)C)C(=O)NS(=O)(=O)C1(C)CC1,-,BMS,-,NS3/NS4A protease,IC50,Hepatitis C virus,<0.05 µM
CC[C@@H](C=O)NC(=O)[C@@H]1C[C@@H](OCc2cc(F)cc3c2OCOC3)CN1C(=O)[C@@H](NC(=O)[C@@H](NC(=O)c1cnccn1)C(C)C)C(C)C,-,-,-,NS3 protease,Ki,Hepatitis C virus,1–100 µM
C=C[C@H]1C[C@@]1(NC(=O)[C@@H]1C[C@@H](Oc2cc(-c3ccccc3)nc3cc(OC)ccc23)CN1C(=O)[C@@H](NC(=O)OC(C)(C)C)C(C)(C)C)C(=O)NS(=O)(=O)C1(CC2CCC2)CC1,-,BMS,-,NS3/NS4A protease,IC50,Hepatitis C virus,<0.05 µM
C=CC1CC1(NC(=O)[C@@H]1C[C@@H](OC(=O)Nc2cc(Cl)ccc2OC)CN1C(=O)[C@@H](NC(=O)OC(C)(C)C)C(C)(C)C)C(=O)NS(=O)(=O)C1CC1,-,BMS/H77C/J416S,-,NS3/NS4A protease,IC50,Hepatitis C virus,<0.1 µM
CC(=O)N[C@@H](CC(=O)O)C(=O)N[C@H](CC(C(=O)O)C(=O)O)C(=O)N[C@@H](Cc1c[nH]c2cccc(C(=O)O)c12)C(=O)N[C@@H](CCC(=O)O)C(=O)N[C@@H](CCC(=O)O)C(=O)N[C@@H](CS)C(=O)C(=O)O,-,-,-,NS3/NS4A serine protease,Ki,Hepatitis C virus,0.0000092 µM
C=CC1CC1(NC(=O)[C@@H]1C[C@@H](Oc2cc(-c3ccccc3)nc3cc(OC)ccc23)CN1C(=O)[C@@H](NC(=O)OC(C)(C)C)C(C)(C)C)C(=O)NS(=O)(=O)C1(CC2CC2)CC1,-,BMS,-,NS3/NS4A protease,IC50,Hepatitis C virus,<0.05 µM
COc1nc(NCCCN2CCOCC2)nc(Nc2ccc3cn[nH]c3c2)n1,-,-,0.01 µg/mL,DNA polymerase,inhibition,Hepatitis B virus,51%
O=C(Nc1cscc1-c1nc(C(=O)O)c(O)c(=O)[nH]1)c1ccc(Br)o1,-,-,-,HCV polymerase,IC50,Hepatitis C virus,<25 µM
COc1nc(Nc2ccc3cn[nH]c3c2)nc(-n2ccnc2)n1,-,-,1 µg/mL,Nonstructural protein 5B,inhibition,Hepatitis C virus,20%
O=C(O)c1cc2nc(-c3cccc(Cl)c3)cc(-c3ccsc3)n2n1,-,-,-,RNA-dependent RNA polymerase,IC50,Hepatitis C virus,>10 µM
NCC(NC(=O)Nc1ccsc1-c1nc(C(=O)O)c(O)c(=O)[nH]1)c1ccccc1,-,-,-,HCV polymerase,IC50,Hepatitis C virus,<25 µM
COc1ccc(-c2cnc3c(C#N)cnn3c2-c2ccc(OC)cc2)cc1,-,-,-,RNA-dependent RNA polymerase,IC50,Hepatitis C virus,>10 µM
CC(C)(C)OC(=O)N[C@@H](COC(=O)Nc1ccsc1-c1nc(C(=O)O)c(O)c(=O)[nH]1)c1ccccc1,-,-,-,HCV polymerase,IC50,Hepatitis C virus,<25 µM
CC(=O)N[C@@H](CC(=O)O)C(=O)N[C@H](CC1CCCCC1)C(=O)N[C@H](C(=O)N[C@@H](CCC(=O)O)C(=O)N[C@@H](CC1CCCCC1)C(=O)N[C@@H](CS)C(=O)C(=O)O)C(c1ccccc1)c1ccccc1,-,-,-,NS3/NS4A serine protease,Ki,Hepatitis C virus,244 µM